The target of this data set is his6-AsiR (UniProt A0A0F6AZV0). Description: EMSA. The following applies: 10 mM Mg2+; recombinant protein; residues 1-293; protein details: 6xHis; probe letters rebuilt from the primers and the genome.

The source of these data is PMC7808427.

For “AATGTGTTTTAGCAACTCGGATGTATGCATTGTTCCCATCCAGAATAACCAACTTTATTTTTGTGCGACGTAGCCGCACCCCGTGATGTCGCCGGGAAGGCCCGGTAAAAGAAGCAAAAAGGTCAAATGCATAGCAGCGCTCAGACATTATGGACATTGTGACGTATAACGCAGCCTCCCACTGAGATTCGCCTTACACGTTTACATCAATTTTTACAAATGCCTAAGATTTTTCCTAATTCGACGCAACTCTACTCGTCAGCTTCGTGACATACAACGGAGCGGGACGGCGATTTTAGAAAATATGTGATGCAGATCACATATTTTAACGGAATACTTACGATAAAACCATCAGCATGGCTTTTACTTTGTTTAATTAATAACCTAATGTTCACTTTTTCTATTCCACACTGCTGAATAGGGGTACGTCAACACCAAATTCTTTTTTGTTTCTCTCTGTTAAAATAACGCCAGGATAATAGATAACA (double strand) [flhDC promoter fragment]”, the binding result is on record as “binds”.
